# According to US20260131011A1, “Anti-Viral Therapeutic Peptides, Conjugates, and Methods of Use Thereof” (published 2026):
# Molecular target: SARS-CoV-2 full-length Spike, WT D614G (SARS-CoV-2, UniProt P0DTC2)
# Assay: cell-based or functional assay
Binder,"IC50, pseudovirus neutralization, WT D614G [µM]","IC80, pseudovirus neutralization, WT D614G [µM]"
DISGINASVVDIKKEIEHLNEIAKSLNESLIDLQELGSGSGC [polypeptide of SEQ ID NO. 612],> 10,> 10
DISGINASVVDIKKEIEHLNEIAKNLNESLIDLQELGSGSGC [polypeptide of SEQ ID NO. 613],> 10,> 10
DISGINASVVNIQKPIDPLNEVAKPLNEPLIDLQELGSGSGC [polypeptide of SEQ ID NO. 602],> 10,> 10
EAAAKEAAAKEAAAKEAAAKEAAAKEAAAKEAAAKEAAAKC [polypeptide of SEQ ID NO. 630],> 10,> 10
